Data source: PubChem BioAssay AID624099 (ICCB-Longwood, 2012)

Purpose: 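Knock-downs relieving repression by E2 of an HPV18 LCR luciferase reporter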 (primary screen)
Cell system: human C33A cervical carcinoma cells (HPV-negative) stably expressing BPV1 E2 and an HPV18 LCR luciferase reporter
Knock-down reagent: siRNA pool against human genes, 40 nM
Time to read-out: 72 h
Measured: 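HPV18 LCR reporter light per well, converted to plate-wise z-scores that exclude control wells, and averaged over triplicate plates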
Reading the numbers: mean z-score and z-score: higher = stronger reporter signal, weaker E2 silencing
Active means: 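Mean z ≥ 2 together with z ≥ 2 in two or more of the three replicates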
The whole screen tested about 21,000 reagents; shown is a random part of them. Of all reagents, 497 (2.4%) got an active call. 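Higher z means weaker E2 silencing; only reporter increases were scored, and knock-downs that hurt cell survival may mask genuine repressor factors.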 A number with no mark means an inactive call. No sequences are given here.

gene knocked down | mean z-score | z-score, replicate A | z-score, replicate B | z-score, replicate C
TNRC6A | -1.86 | -1.76 | -2.06 | -1.78
RAB39A | 1.72 | 1.78 | 1.69 | 1.7
ZNF148 | 0.79 | 1.17 | 0.63 | 0.57
FLOT1 | 0.94 | 1.01 | 1.17 | 0.63
CYP27A1 | 1.39 | 1.74 | 1.25 | 1.18
LOC402693 (retired record) | -0.15 | 0.34 | -0.29 | -0.49
CAMK2D | 2.47 (active) | 2.46 | 2.15 | 2.8
ATP1A2 | 1.17 | 0.87 | 1.25 | 1.38
KCNE5 | -0.1 | -0.35 | 0.13 | -0.09
GCC1 | -1.28 | -1.59 | -1.39 | -0.86
GSE1 | 1.73 | 1.25 | 2.2 | 1.73
PCDH12 | 0.21 | 0.07 | -0.05 | 0.62
PTPRS | -1.27 | -1.3 | -1.1 | -1.39
CST4 | 0 | 0.11 | -0.35 | 0.25
TAF6L | 2.65 (active) | 2.32 | 2.88 | 2.74
ARRDC1 | 2.43 (active) | 2.45 | 2.81 | 2.03
SEPTIN3 | 0.63 | 0.3 | 0.77 | 0.8
KLF6 | -1.93 | -1.38 | -2.14 | -2.25
LRRC4C | 0.16 | 0.03 | 0.05 | 0.39
ZNF532 | 3.22 (active) | 3.47 | 3.23 | 2.95
CBR3 | -0.12 | -0.14 | -0.12 | -0.1
RBM24 | -0.86 | -0.8 | -0.73 | -1.06
AKAP13 | 0.47 | 0 | 0.62 | 0.8
ABCF2 | 1.03 | 0.98 | 0.91 | 1.19
TMPO | 0.25 | 0.29 | 0.17 | 0.28
MPHOSPH10P1 | 0.6 | 0.71 | 0.46 | 0.63
LOC387859 (retired record) | 0.5 | 0.52 | 0.62 | 0.35
H2BC5 | 0.72 | 0.74 | 0.57 | 0.85
PRR20A | 1.04 | 1.06 | 1.15 | 0.92
NEURL3 | -0.6 | -0.56 | -0.29 | -0.93
TLR1 | 1.13 | 1.03 | 1.22 | 1.13
RPL7P48 | 0.27 | -0.04 | 0.4 | 0.43
LOC400888 (retired record) | -0.35 | -0.62 | 0.04 | -0.48
TRPC4 | 0.17 | 0.08 | 0.18 | 0.25
LOC151273 (retired record) | 0.36 | 0.61 | 0.14 | 0.32
CD70 | -0.54 | -0.5 | -0.3 | -0.84
PGCKA1 | 0.34 | 0.23 | 0.3 | 0.47
MCM7 | -1.14 | -1.19 | -1.23 | -1
TM2D3 | -0.99 | -1.04 | -1.57 | -0.36
KLRK1 | 0.07 | 0.05 | 0.14 | 0.01
RGS18 | -0.07 | 0.1 | -0.35 | 0.05
LOC401701 (retired record) | -0.07 | 0.15 | -0.54 | 0.19
IRF6 | 0.84 | 0.76 | 0.86 | 0.9
PLA2G7 | 0.16 | 0.18 | 0.26 | 0.05
ABL1 | 0.62 | 0.41 | 0.7 | 0.74
SACK1A | 1.79 | 1.69 | 1.92 | 1.77
NR4A3 | 1.57 | 1.68 | 1.58 | 1.44
ATF1 | 0.3 | -0.32 | 0.48 | 0.74
MTARC2 | 0.58 | 0.88 | 0.4 | 0.45
BAIAP2L2 | -0.7 | -0.65 | -0.92 | -0.52
LOC389908 (retired record) | -0.93 | -1.28 | -0.82 | -0.68
ECSIT | -0.53 | -0.21 | -0.96 | -0.42
SLC15A2 | -0.6 | -0.42 | -0.53 | -0.86
DPH1 | 0.15 | 0.09 | 0.18 | 0.18
IDI2 | -0.56 | -0.89 | -0.58 | -0.21
EOGT | -0.24 | -0.41 | 0.03 | -0.34
PSCA | 0.8 | 0.99 | 0.79 | 0.62
OR8U1 | 0.34 | 0.81 | 0.32 | -0.1
POU3F2 | 1.91 | 1.96 | 2.03 | 1.75
RDH12 | 1.1 | 1.3 | 0.74 | 1.27
DLX1 | 0.8 | 0.65 | 0.63 | 1.12
OSGIN2 | -1.07 | -1.31 | -1.35 | -0.54
MTMR8 | 0.35 | 0.29 | 0.2 | 0.55
TADA3 | 1.34 | 1.6 | 1.2 | 1.22
ACP6 | -0.62 | -0.82 | -0.42 | -0.63
FREM3 | 0.35 | 0.07 | 0.29 | 0.69
MARCHF3 | -0.88 | -1.17 | -0.8 | -0.65
C1QTNF3 | -0.72 | -0.8 | -0.64 | -0.73
AUTS2 | 2.04 (active) | 2.34 | 2.08 | 1.7
LCNL1 | -0.15 | -0.21 | -0.24 | 0.01
ZNF660 | -1.38 | -1.55 | -1.11 | -1.5
GNAT1 | -1.01 | -1.01 | -1.07 | -0.94
RPL17P5 | -4.76 | -4.88 | -4.98 | -4.42

10 entries from above, set out differently.
SLC15A2
- mean z-score: -0.6
- z-score, replicate A: -0.42
- z-score, replicate B: -0.53
- z-score, replicate C: -0.86

DPH1
- mean z-score: 0.15
- z-score, replicate A: 0.09
- z-score, replicate B: 0.18
- z-score, replicate C: 0.18

IDI2
- mean z-score: -0.56
- z-score, replicate A: -0.89
- z-score, replicate B: -0.58
- z-score, replicate C: -0.21

EOGT
- mean z-score: -0.24
- z-score, replicate A: -0.41
- z-score, replicate B: 0.03
- z-score, replicate C: -0.34

PSCA
- mean z-score: 0.8
- z-score, replicate A: 0.99
- z-score, replicate B: 0.79
- z-score, replicate C: 0.62

OR8U1
- mean z-score: 0.34
- z-score, replicate A: 0.81
- z-score, replicate B: 0.32
- z-score, replicate C: -0.1

POU3F2
- mean z-score: 1.91
- z-score, replicate A: 1.96
- z-score, replicate B: 2.03
- z-score, replicate C: 1.75

RDH12
- mean z-score: 1.1
- z-score, replicate A: 1.3
- z-score, replicate B: 0.74
- z-score, replicate C: 1.27

DLX1
- mean z-score: 0.8
- z-score, replicate A: 0.65
- z-score, replicate B: 0.63
- z-score, replicate C: 1.12

OSGIN2
- mean z-score: -1.07
- z-score, replicate A: -1.31
- z-score, replicate B: -1.35
- z-score, replicate C: -0.54
